Patent publication US11185511B2, “Antifungal topical composition and methods of treatment” (priority 2013, dated 2021)
“Also recorded” adds a separate entry of the source.

Assays:
[1] = Fluorescence and absorbance studies of interaction with PHMB; type: physicochemical; details: 1:6 ratio between ketoconazole and PHMB
C albicans cells = test: Fluorescence microscopy of cellular delivery of berberine; type: cell-based, Candida albicans

## CC(=O)N1CCN(c2ccc(OCC3COC(Cn4ccnc4)(c4ccc(Cl)cc4Cl)O3)cc2)CC1 (stereo not drawn) [Ketoconazole]
[1]
  Fluorescence in presence of PHMB (dropped to): ~50%

## COc1ccc2cc3[n+](cc2c1OC)CCc1cc2c(cc1-3)OCO2 [Berberine]
C albicans cells; 1 μg/ml of berberine alone
  Delivery of berberine into C albicans (green fluorescence of cytoplasm): delivery of small amount of berberine
C albicans cells; berberine combined with PHMB (FIG. 6: 1 μg/ml berberine and 1.25 μg/ml PHMB), compared with berberine alone
  Delivery of berberine into C albicans (fluorescence of cells): considerable increase in fluorescence of cells; also recorded: increased delivery of berberine
